Pooled drug test results. Numbers come from NIAID ChemDB, via PubChem.

Shared fields: host cell toxicity; cell line: MDCK; measure: CC50

a–b is a range or a potency band.

{"SMILES": "CCCC(CCC)C(NC(C)=O)C1CC(C(=O)O)CC1N=C(N)N", "method": "neutral red", "result": ">1000 µM"}
{"SMILES": "Nc1nc(Cl)cc(NC2(CO)CCC2)n1", "result": ">440 µM"}
{"SMILES": "Nc1ncnc2c1ncn2[C@@H]1O[C@H](CO)[C@@H](O)[C@H]1F", "method": "MTT", "result": "320 µM"}
{"SMILES": "Cc1ccccc1C(=S)NC[C@@]1(C)C[C@H](O)CC(C)(C)C1", "result": "70 µg/mL"}
{"SMILES": "CCOC(=O)C1=C[C@@H](OC(CC)CC)[C@H](NC(C)=O)[C@@H](N)C1", "method": "neutral red", "result": ">1000 µM"}
{"SMILES": "O=C(NCCCN1CCC[C@@H]2CCCC[C@@H]21)c1cc(Cl)ccc1O", "result": "30 µg/mL"}
{"SMILES": "COc1cc(OC)cc([C@H]2c3cc(/C=C/c4cc(O)cc(O)c4)ccc3O[C@@H]2c2ccc(O)cc2)c1", "method": "MTT", "result": "35.96 µg/mL"}
{"SMILES": "CCC(CC)[C@H](NC(C)=O)[C@@H]1C[C@@H](C(=O)O)C[C@H]1N=C(N)N", "method": "neutral red", "result": ">1000 µM"}
{"SMILES": "Nc1nc(Cl)c(N)c(NCC2(CO)CC(CCCc3ccccc3)C2)n1", "result": "0.024–0.053 µM"}
{"SMILES": "COc1cc(/C=C/c2ccc3c(c2)[C@H](c2cc(OC)cc(OC)c2)[C@@H](c2ccc(O)cc2)O3)cc(OC)c1", "method": "MTT", "result": ">128 µg/mL"}
{"SMILES": "COc1ccccc1C(=S)NC[C@@]1(C)C[C@@H](O)CC(C)(C)C1", "result": "45 µg/mL"}
{"SMILES": "C[C@@H]1CCC[C@H](C)N1CCCNC(=O)c1cc(Cl)ccc1O", "result": "100 µg/mL"}
{"SMILES": "CC1(C)C[C@H](O)C[C@](C)(CNC(=S)c2ccccc2)C1", "result": "50 µg/mL"}
{"SMILES": "CCCCCCCCCCCCCCCCO[C@H]1N([C@H]2C[C@H](N=[N+]=[N-])[C@@H](CO)O2)C(=O)NC(=O)[C@]1(C)Br", "method": "MTT", "result": ">500 µg/mL"}
{"SMILES": "Nc1nc(Cl)cc(NCC2(CO)CC(Cc3ccccc3)C2)n1", "result": "0.36–2.1 µM"}
{"SMILES": "CCOc1nc2c(nc(N)n2[C@@H]2O[C@H](CO)[C@@H](O)[C@H]2F)c(=O)[nH]1", "method": "MTT", "result": ">500 µM"}
{"SMILES": "CC(=O)N[C@H]1[C@H]([C@H](O)[C@H](O)CO)OC(C(=O)O)=C[C@@H]1N=C(N)N", "method": "neutral red", "result": ">1000 µM"}
{"SMILES": "Nc1ccn([C@@H]2O[C@H](CO)[C@@H](O)[C@H]2F)c(=O)n1", "method": "MTT", "result": "39 µM"}
{"SMILES": "CCC(C)N1C2CCC23CC[C@@H](NC(=O)c2cc(C)ccc2O)CC13", "result": "100 µg/mL"}
{"SMILES": "Cc1ccc(C(=S)NC[C@@]2(C)C[C@H](O)CC(C)(C)C2)c(C)c1", "result": "35 µg/mL"}
{"SMILES": "Nc1nc2c(ncn2[C@@H]2O[C@H](CO)[C@@H](O)[C@H]2F)c(=O)[nH]1", "method": "MTT", "result": "437 µM"}
{"SMILES": "COS(=O)(=O)O.N=C(N)c1ccc2cc(OC(=O)c3ccc(N=C(N)N)cc3)ccc2c1", "method": "MTT", "result": "150 µg/mL"}
{"SMILES": "Nc1cc(Cl)nc(N)n1", "result": ">690 µM"}
{"SMILES": "Cc1ccc(O)c(C(=O)NCCN2CCC(C)[C@@H]3CCCC[C@@H]32)c1", "result": "100 µg/mL"}
{"SMILES": "Cc1cc(NCCCCCCCCNc2cc(C)nc3cc(N(C)C)ccc23)c2ccc(N(C)C)cc2n1", "method": "MTT", "result": ">500 µg/mL"}

A second listing of 2 rows from above:

SMILES | method | result
Cc1cc(NCCCCCCCCNc2cc(C)nc3cc(N(C)C)ccc23)c2ccc(N(C)C)cc2n1 | MTT | >500 µg/mL
O=C(NCCCN1CCC[C@@H]2CCCC[C@@H]21)c1cc(Cl)ccc1O | - | 30 µg/mL

CCn: concentration that lowers growth or viability of the cells by n%. Blank or dashed fields: not listed here. Conditions beyond the fields shown may differ between rows.